{"source": "PubChem BioAssay AID504761 (Drosophila RNAi Screening Center, 2011)", "screen": "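Insect host genes that dengue virus relies on to spread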 (primary screen)", "system": "D.Mel-2 cells from Drosophila", "reagent": "long dsRNA against Drosophila genes", "challenge": "infection with dengue virus type 2; dose and infection time not stated", "detection": "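Cells stained for dengue envelope protein and imaged; percent of infected cells per well on duplicate plates, ranked by infection, with stained nuclei counted for cell number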", "direction": "infection score: higher = more virus-infected cells; cell count: higher = more cells in the well", "hit rule": "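Low infection ranks in the two replicates (chance level up to 0.065) followed by a retest with a 1.5-fold or larger significant decrease, p below 0.05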", "calls": "active = confirmed: knock-down lowers infection; inactive = not picked or not confirmed", "note": "The deposit covers about 22,000 reagents; this is an unselected part of those that have a named target and a result. Over the whole deposit, 116 (0.52%) are marked active. 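Calls depend on retest data that are not deposited; infection was ranked per plate without normalising between plates; the unit of the infection score is not given.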 The raw values are shown without normalisation. Names joined by + are all predicted targets of the reagent. Not stated in the record: the amount of reagent, the time to read-out."}
{"target":"CG10348","amplicon":"DRSC23233","infection score, replicate 1":2.53,"infection score, replicate 2":2.53,"cell count, replicate 1":6572,"cell count, replicate 2":6998,"Call":"inactive"}
{"target":"CG10348","amplicon":"DRSC30046","infection score, replicate 1":29.5,"infection score, replicate 2":14.3,"cell count, replicate 1":3371,"cell count, replicate 2":6672,"Call":"inactive"}
{"target":"Vps16A","amplicon":"DRSC16422","infection score, replicate 1":2.13,"infection score, replicate 2":1.97,"cell count, replicate 1":4825,"cell count, replicate 2":5116,"Call":"inactive"}
{"target":"CG4461","amplicon":"DRSC10423","infection score, replicate 1":4.1,"infection score, replicate 2":5,"cell count, replicate 1":5860,"cell count, replicate 2":6177,"Call":"inactive"}
{"target":"CG4461","amplicon":"DRSC29266","infection score, replicate 1":19.4,"infection score, replicate 2":19.2,"cell count, replicate 1":5682,"cell count, replicate 2":6200,"Call":"inactive"}
{"target":"Gbp1","amplicon":"DRSC06592","infection score, replicate 1":17.4,"infection score, replicate 2":14.6,"cell count, replicate 1":5993,"cell count, replicate 2":6293,"Call":"inactive"}
{"target":"CG30485","amplicon":"DRSC06376","infection score, replicate 1":11.3,"infection score, replicate 2":4.03,"cell count, replicate 1":6458,"cell count, replicate 2":6549,"Call":"inactive"}
{"target":"CG9902","amplicon":"DRSC20212","infection score, replicate 1":2.91,"infection score, replicate 2":3.02,"cell count, replicate 1":6591,"cell count, replicate 2":6189,"Call":"inactive"}
{"target":"CG9902","amplicon":"DRSC24871","infection score, replicate 1":14.4,"infection score, replicate 2":25.5,"cell count, replicate 1":4049,"cell count, replicate 2":5189,"Call":"inactive"}
{"target":"CG7214","amplicon":"DRSC03028","infection score, replicate 1":1.3,"infection score, replicate 2":1.9,"cell count, replicate 1":1921,"cell count, replicate 2":1208,"Call":"inactive"}
{"target":"CG7214","amplicon":"DRSC21869","infection score, replicate 1":11.6,"infection score, replicate 2":3.43,"cell count, replicate 1":2445,"cell count, replicate 2":5863,"Call":"inactive"}
{"target":"CG7214","amplicon":"DRSC29482","infection score, replicate 2":6.32,"cell count, replicate 1":229,"cell count, replicate 2":2676,"Call":"inactive"}
{"target":"CG12607","amplicon":"DRSC08287","infection score, replicate 1":1.41,"infection score, replicate 2":0.34,"cell count, replicate 1":6435,"cell count, replicate 2":5363,"Call":"inactive"}
{"target":"p130CAS","amplicon":"DRSC07862","infection score, replicate 1":2.02,"infection score, replicate 2":0.69,"cell count, replicate 1":5745,"cell count, replicate 2":5822,"Call":"inactive"}
{"target":"p130CAS","amplicon":"DRSC08257","infection score, replicate 1":15.4,"infection score, replicate 2":8.68,"cell count, replicate 1":7156,"cell count, replicate 2":6877,"Call":"inactive"}
{"target":"p130CAS","amplicon":"DRSC26616","infection score, replicate 1":2.6,"infection score, replicate 2":1.56,"cell count, replicate 1":5855,"cell count, replicate 2":6103,"Call":"inactive"}
{"target":"Cpr49Aa","amplicon":"DRSC07197","infection score, replicate 1":13.4,"infection score, replicate 2":5.75,"cell count, replicate 1":6362,"cell count, replicate 2":6071,"Call":"inactive"}
{"target":"SERCA","amplicon":"DRSC04600","infection score, replicate 1":15.7,"infection score, replicate 2":22.7,"cell count, replicate 1":5447,"cell count, replicate 2":5327,"Call":"inactive"}
{"target":"SERCA","amplicon":"DRSC26195","infection score, replicate 1":6.6,"infection score, replicate 2":2.41,"cell count, replicate 1":5398,"cell count, replicate 2":5219,"Call":"inactive"}
{"target":"mTerf5","amplicon":"DRSC16209","infection score, replicate 1":19.7,"infection score, replicate 2":26.4,"cell count, replicate 1":5895,"cell count, replicate 2":5621,"Call":"inactive"}
{"target":"CR18275 + CR18166 + CG32817","amplicon":"DRSC17249","infection score, replicate 1":1.05,"infection score, replicate 2":0.11,"cell count, replicate 1":6490,"cell count, replicate 2":6229,"Call":"inactive"}
{"target":"Tgi","amplicon":"DRSC09793","infection score, replicate 1":2.73,"infection score, replicate 2":1.17,"cell count, replicate 1":6709,"cell count, replicate 2":6825,"Call":"inactive"}
{"target":"Tgi","amplicon":"DRSC09794","infection score, replicate 1":0.64,"infection score, replicate 2":0.49,"cell count, replicate 1":6051,"cell count, replicate 2":6561,"Call":"inactive"}
{"target":"Tgi","amplicon":"DRSC25518","infection score, replicate 1":10,"infection score, replicate 2":9.78,"cell count, replicate 1":5941,"cell count, replicate 2":4623,"Call":"inactive"}
{"target":"CG32344","amplicon":"DRSC08578","infection score, replicate 1":2.82,"infection score, replicate 2":4.41,"cell count, replicate 1":5495,"cell count, replicate 2":6093,"Call":"inactive"}
{"target":"CG12010","amplicon":"DRSC08218","infection score, replicate 1":0.33,"infection score, replicate 2":2.26,"cell count, replicate 1":5741,"cell count, replicate 2":6117,"Call":"inactive"}
{"target":"Rab9Fb","amplicon":"DRSC19854","infection score, replicate 1":5.73,"infection score, replicate 2":8.82,"cell count, replicate 1":6701,"cell count, replicate 2":6453,"Call":"inactive"}
